From patent US20030017483A1, “Modulation of molecular interaction sites on RNA and other biomolecules” (priority 1998, published 2003) come the findings set out here.

In this data set the test system is 27-mer RNA/DNA chimeric corresponding to the 16S rRNA A site. As to the kind of experiment: ESI-MS and CID of 27-mer RNA/DNA chimeric with ligands. It is filed as binding.

Regarding `NC[C@@H]1O[C@H](O[C@H]2[C@@H](O)[C@H](O[C@@H]3[C@@H](O)[C@H](N)C[C@H](N)[C@H]3O[C@H]3O[C@H](CO)[C@@H](O)[C@H](O)[C@H]3N)O[C@@H]2CO)[C@H](N)[C@@H](O)[C@@H]1O` [Paromomycin], the “stoichiometry of complex with 27-mer” value (10 μM RNA, 150 nM paromomycin, ESI-MS) was “only a 1:1 complex”. The “location of binding on the target (CID fragmentation/protection)” value (ESI-CID-MS) is given as “no fragmentation at the dA sites”.
